Measured values from several laboratories, pooled; numbers as filed in NIAID ChemDB.

All rows: growth or infection tests; species: HIV-1; endpoint: EC50

ECn: concentration that inhibits the pathogen or its effect by n%. a–b is a range or a potency band. Blank or dashed fields: not listed here. Conditions beyond the fields shown may differ between rows.

SMILES	changes	cell line	method	strain or isolate	result
Cc1cc(OCCCN2CCOCC2)ccc1NC(=O)COc1ccc(Cl)cc1C(=O)c1cccs1	RT-K103N	HeLa + HELA CD4+	β-galactosidase	HXB2	0.011–0.1 µM
CCCC(C(=O)O)c1c(C)nc2ccc(Cl)cc2c1-c1ccc2c(ccn2C)c1	-	C8166	luciferase / reporter gene	-	<20 µM
N#CCc1ccc2cccc(S(=O)(=O)n3nc(Nc4ccc(C#N)c(Cl)c4)nc3N)c2c1	-	TZM-bl	luciferase / RT activity	IIIB	0.00529 µM
Cc1nc2ccc(Cl)cc2c(-c2cccs2)c1C(OC(C)C)C(=O)O	-	C8166	luciferase / reporter gene	-	<20 µM
N#C/C=C/c1ccc2cccc(S(=O)(=O)n3nc(Nc4ccc(C#N)c(Cl)c4)nc3N)c2c1	-	TZM-bl	luciferase / RT activity	IIIB	0.001745 µM
CC(C)C1=C2[C@H]3CC[C@@H]4[C@@]5(C)CC[C@H](OC(=O)[C@H]6C[C@@H](C(=O)O)C6(C)C)C(C)(C)[C@@H]5CC[C@@]4(C)[C@]3(C)CC[C@@]2([C@@H](O)CNC(=O)[C@H]2CCCCN2)CC1=O	-	MT-2	p24 / ELISA	92HT599	<1 µM
CCCCO[C@H](C(=O)O)c1c(C)ncc(-c2ccc(OCCOc3ccccc3Cl)cn2)c1N1CCC(C)(C)CC1	-	MT-2	luminescence	NL4-3	0.0079 µM
Cc1cc(S(N)(=O)=O)ccc1NC(=O)COc1ccc(Cl)cc1C(=O)c1cc(F)cc(C#N)c1	RT-V108I Y181C	HeLa + HELA CD4+	β-galactosidase	HXB2	<0.01 µM
Cc1ccc(OCCOc2ncc(-c3cnc(C)c([C@H](OC(C)(C)C)C(=O)O)c3N3CCC(C)(C)CC3)cc2F)cc1	-	MT-2	luminescence	NL4-3	0.001 µM
CC(=O)Nc1ccc(F)c2c(C(=O)C(=O)N3CCC(=C(C#N)c4ccncc4)CC3)c[nH]c12	-	HeLa	luciferase / reporter gene	-	<1 µM
N#CCc1ccc(Nc2nc(N)n(S(=O)(=O)c3cccc4ccc(CC#N)cc34)n2)cc1	-	TZM-bl	luciferase / RT activity	IIIB	0.000182 µM
Cc1cc(C#N)cc(C(=O)c2cc(Cl)ccc2OCC(=O)Nc2cnc(S(N)(=O)=O)cc2C)c1	RT-G190A	HeLa + HELA CD4+	β-galactosidase	HXB2	<0.01 µM
CCCc1ccc(-c2c(C(OC(C)C)C(=O)O)c(C)nc3ccc(Cl)cc23)cc1F	-	C8166	luciferase / reporter gene	-	<20 µM
CC(C)=CCOc1cc(NC(=S)c2ccsc2C)ccc1Cl	RT-L74V	CEM + CEM-SS	p24	NL4-3	0.006 µM
CCCc1cc(=O)oc2c3c(c4c(c12)OC(C)(C)CC4)O[C@@H](C)[C@H](C)[C@@H]3O	RT-L100I	CEM + CEM-SS	XTT	Dihydrocostatolide-resistant (RT-L100I)	>27 µM
Cc1ncc(-c2ccc(OCCn3cc(Cl)cn3)cn2)c(N2CCC(C)(C)CC2)c1[C@H](OC(C)(C)C)C(=O)O	-	MT-2	luminescence	NL4-3	0.0071 µM
NC(N)=NCCC[C@H](N)C(=O)NC[C@@H]1OC(O[C@H]2[C@@H](O)[C@H](O[C@@H]3[C@@H](O)[C@H](NC(=O)[C@@H](N)CCCN=C(N)N)C[C@H](NC(=O)[C@@H](N)CCCN=C(N)N)[C@H]3O[C@H]3O[C@H](CNC(=O)[C@@H](N)CCCN=C(N)N)[C@@H](O)[C@H](O)[C@H]3NC(=O)[C@@H](N)CCCN=C(N)N)O[C@@H]2CO)[C@H](NC(=O)[C@@H](N)CCCN=C(N)N)[C@@H](O)[C@@H]1O	-	MT-2	p24 / RT activity	B	2.3 µM
COCCOC(C(=O)O)c1c(C)nc2ccc(Br)cc2c1-c1ccc(Cl)cc1	-	C8166	luciferase / reporter gene	-	<20 µM
C#C[C@@]1(CO)C=C[C@H](n2cc(C)c(=O)[nH]c2=O)O1	M184V	MT-2	recombinant virus assay	Clinical isolate	0.7429 µM
C[C@@H]1CN(C(=O)c2ccccc2)CCN1C(=O)C(=O)c1c[nH]c2c(NC(=O)c3cccc(B(O)O)c3)cccc12	-	HeLa	luciferase / reporter gene	-	<1 µM
CC(C)C1=C2[C@H]3CC[C@@H]4[C@@]5(C)CC[C@H](OC(=O)[C@H]6C[C@@H](C(=O)O)C6(C)C)C(C)(C)[C@@H]5CC[C@@]4(C)[C@]3(C)CC[C@@]2(CC(=O)NC(CCCN)CNC(=O)c2ccc(Cl)cc2)CC1=O	-	MT-2	p24 / ELISA	92HT599	<1 µM
C[C@@H]1CN(C(=O)c2ccccc2)CCN1C(=O)C(=O)c1c[nH]c2c(NC(=O)C3OC3C(=O)O)cccc12	-	HeLa	luciferase / reporter gene	-	<1 µM
CCCC(C(=O)O)c1c(C)nc2ccc(Cl)cc2c1-c1ccc(F)c(F)c1	-	C8166	luciferase / reporter gene	-	<20 µM
CC(C)C1=C2[C@H]3CC[C@@H]4[C@@]5(C)CC[C@H](OC(=O)[C@H]6C[C@@H](C(=O)O)C6(C)C)C(C)(C)[C@@H]5CC[C@@]4(C)[C@]3(C)CC[C@@]2([C@@H](O)CNC(=O)C(C)(C)NC(=O)c2cccnc2)CC1=O	-	MT-2	p24 / ELISA	92HT599	<1 µM
Nc1ccn([C@H]2CC[C@@H](CO)O2)c(=O)n1	A96D	-	β-galactosidase	NL4-3	0.255 µM
CNCCCN(C)CCN1CCN(c2cccc3c(C(=O)C(=O)N4CCN(C(=O)c5ccccc5)C[C@H]4C)c[nH]c23)C1=O	-	HeLa	luciferase / reporter gene	-	<1 µM
Cc1cc(S(N)(=O)=O)ccc1NC(=O)COc1ccc(Cl)cc1C(=O)c1cc(Cl)cc(Cl)c1	RT-K103N Y181C	HeLa + HELA CD4+	β-galactosidase	HXB2 (RT-K103N Y181C) Recombinant	<0.01 µM
Nc1nc(NC2CC2)c2ncn([C@H]3C=C[C@@H](CO)C3)c2n1	K65R/Y181C/G190S	MT-2	recombinant virus assay	Clinical isolate	0.2376 µM
Cc1ccc(OCCN(C)c2ccc(-c3cnc(C)c([C@H](OC(C)(C)C)C(=O)O)c3N3CCC(C)(C)CC3)nc2)cc1C	-	MT-2	luminescence	NL4-3	0.005 µM
Nc1nc(=O)n([C@H]2C=C[C@@H](CO)O2)cc1F	-	PBMC	PCR	BRU-184V	<0.21 µM
CC(C)C1=C2[C@H]3CC[C@@H]4[C@@]5(C)CC[C@H](OC(=O)[C@H]6C[C@@H](C(=O)O)C6(C)C)C(C)(C)[C@@H]5CC[C@@]4(C)[C@]3(C)CC[C@@]2(CC(=O)NCc2ccc(C(F)(F)F)cc2)CC1=O	-	MT-2	p24 / ELISA	92HT599	<1 µM
Cc1ncc(-c2ccc(OCCOC(C)C)cn2)c(N2CCC(C)(C)CC2)c1[C@H](OC(C)(C)C)C(=O)O	-	MT-2	luminescence	NL4-3	0.002 µM
Cc1cc(S(N)(=O)=O)ccc1NC(=O)COc1ccc(Cl)cc1C(=O)c1cc(F)cc(C(F)(F)F)c1	RT-K103N G190A	HeLa + HELA CD4+	β-galactosidase	HXB2 (RT-K103N G190A) Recombinant	0.011–0.1 µM
C[C@H]1[C@H](O)[C@@H](C)/C=C/C=C/C=C/C=C/C=C/C=C/C=C/[C@H](O[C@@H]2O[C@H](C)[C@@H](O)[C@H](N)[C@@H]2O)C[C@@H]2O[C@](O)(C[C@@H](O)C[C@@H](O)CC[C@H](O)[C@@H](O)C[C@@H](O)CC(=O)O[C@H]1C)C[C@H](O)[C@H]2C(=O)O	-	PBMC	p24 / RT activity	92RW009 CLADE A X4/R5(SI)	3.3 µM
Cc1ncc(-c2ccc(OCCOc3c(F)cccc3Cl)nc2)c(N2CCC(C)(C)CC2)c1[C@H](OC(C)(C)C)C(=O)O	-	MT-2	luminescence	NL4-3	0.0028 µM
CC(=O)c1ccc(-c2c(C(OC(C)C)C(=O)O)c(C)nc3ccc(Cl)cc23)cc1	-	C8166	luciferase / reporter gene	-	<20 µM
Cc1ncc(-c2ccc(OC3CCC3C)cn2)c(N2CCC(C)(C)CC2)c1[C@H](OC(C)(C)C)C(=O)O	-	MT-2	luminescence	NL4-3	0.0016 µM
Cc1cc(S(N)(=O)=O)ccc1NC(=O)COc1ccc(Cl)cc1C(=O)c1cccc(C#N)c1	-	MT-4	cytopathic effect / propidium iodide	IIIB	<0.01 µM
Cc1cc(C(=O)NC(C)(C)C(=O)NC[C@H](O)[C@@]23CC[C@]4(C)[C@H](CC[C@@H]5[C@@]6(C)CC[C@H](OC(=O)[C@H]7C[C@@H](C(=O)O)C7(C)C)C(C)(C)[C@@H]6CC[C@]54C)C2=C(C(C)C)C(=O)C3)n[nH]1	-	MT-2	p24 / ELISA	92HT599	<1 µM
Cc1cc(C#N)cc(C(=O)c2cc(Cl)ccc2OCC(=O)Nc2ccc(OCCCN3CC=CC3)cc2C)c1	RT-P236L	HeLa + HELA CD4+	β-galactosidase	HXB2	<0.01 µM
CC(C)C1=C2[C@H]3CC[C@@H]4[C@@]5(C)CC[C@H](OC(=O)[C@H]6C[C@@H](C(=O)O)C6(C)C)C(C)(C)[C@@H]5CC[C@@]4(C)[C@]3(C)CC[C@@]2(CC(=O)NCC2(NC(=O)c3ccc(Cl)cc3)CCCCC2)CC1=O	-	MT-2	p24 / ELISA	92HT599	<1 µM
CO[C@H](C(=O)O)c1c(C)nc2ccc(Br)cc2c1-c1ccc(Cl)cc1	-	C8166	luciferase / reporter gene	-	<20 µM
C=C(C)[C@@H]1CC[C@]2(C(=O)NCCC(C)(C)C)CC[C@]3(C)[C@H](CC[C@@H]4[C@@]5(C)CC[C@H](OC(=O)CC(C)(C)C(=O)O)C(C)(C)[C@@H]5CC[C@]43C)[C@@H]12	V370A	-	absorbance	NL4-3	0.125 µM

Repeating the final 4 entries:

SMILES | changes | cell line | method | strain or isolate | result
Cc1cc(C#N)cc(C(=O)c2cc(Cl)ccc2OCC(=O)Nc2ccc(OCCCN3CC=CC3)cc2C)c1 | RT-P236L | HeLa + HELA CD4+ | β-galactosidase | HXB2 | <0.01 µM
CC(C)C1=C2[C@H]3CC[C@@H]4[C@@]5(C)CC[C@H](OC(=O)[C@H]6C[C@@H](C(=O)O)C6(C)C)C(C)(C)[C@@H]5CC[C@@]4(C)[C@]3(C)CC[C@@]2(CC(=O)NCC2(NC(=O)c3ccc(Cl)cc3)CCCCC2)CC1=O | - | MT-2 | p24 / ELISA | 92HT599 | <1 µM
CO[C@H](C(=O)O)c1c(C)nc2ccc(Br)cc2c1-c1ccc(Cl)cc1 | - | C8166 | luciferase / reporter gene | - | <20 µM
C=C(C)[C@@H]1CC[C@]2(C(=O)NCCC(C)(C)C)CC[C@]3(C)[C@H](CC[C@@H]4[C@@]5(C)CC[C@H](OC(=O)CC(C)(C)C(=O)O)C(C)(C)[C@@H]5CC[C@]43C)[C@@H]12 | V370A | - | absorbance | NL4-3 | 0.125 µM